Experimental findings from publication PMC6429459 (International Journal of Molecular Sciences, 2019) are described below.

* marks the point of attachment. AMC = Cc1cc(=O)oc2cc(N*)ccc12; Cbz = O=C(OCc1ccccc1)*

This series can be described thus: general procedure: Fmoc solid-phase peptide synthesis; Wang-polystyrene resin loaded with Fmoc-Leu-OH or Fmoc-Ala-OH (0.6 mmol/g); 2-chlorotrityl chloride polystyrene resin (1); HBTU/DIEA (manual); HATU/DIEA (automated). The settings on record: coupling step.

With “Cbz-EVNL-{AMC} (SMILES Cc1cc(=O)oc2cc(NC(=O)[C@H](CC(C)C)NC(=O)[C@H](CC(N)=O)NC(=O)[C@@H](NC(=O)[C@H](CCC(=O)O)NC(=O)OCc3ccccc3)C(C)C)ccc12)”, the step yield turned out to be 15.2%.
